The results in this text go back to patent US20230109218A1 (BIOATLA, published 2023).

This experiment has as its target T1, recombinant human HER2 antigen (human).
T1 construct: also called human HER2 protein
Briefly: pH range ELISA on coated recombinant human HER2, antibody 100 ng/mL, pH 5.0-7.4; pH of 50% binding (binding at pH 6.0 = 100%). Background: In an ELISA, binding on a coated surface is turned into a signal by an enzyme label.

B1: LC A032D/HC A106E conditionally active anti-HER2 antibody (antibody, V domains shown)
VH: [about 120 residues with changes not printed]
VL: DIQMTQSPSSLSASVGDRVTITCRASQDVNTDVAWYQQKPGKAPKLLIYSASFLYSGVPSRFSGSRSGTDFTLTISSLQPEDFATYYCQQHYTTPPTFGQGTKVEIK
notes: also called BA-130-03-07
Consider B1, for which the pH inflection point worked out at 6.61 pH.
